Experimental data taken from ChEMBL document CHEMBL1125866, “Aldophosphamide acetal diacetate and structural analogues: synthesis and cytotoxicity studies” (J Med Chem, 1991).

System: L1210
Assay: Concentration required to reduce the viability of L1210 cells by 50% after 1-h incubation at 37 degrees C
Type: functional, cell-based
Settings: Mus musculus, L1210, 1 h
Summary of the method: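 L1210 murine leukemia cells, exponentially growing, 5 × 10^5/mL in RPMI 1640 with 10% heat-inactivated fetal calf serum, pH 7.4. Exposed to at least seven drug concentrations (0.1–300 μM) for 1 h at 37 °C, washed, regrown drug-free 72 h. MTT reduction read at 570 nm. IC50 from concentration–viability plot, average of duplicates.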

For O=P1(N(CCCl)CCCl)NC(SCCS(=O)(=O)O)CCO1 (stereo unspecified) [MAFOSFAMIDE], the IC50 was 42 µM.
